Measured values from several laboratories, pooled; numbers as filed in NIAID ChemDB.

All rows: tests in culture

Percent inhibition refers to the dose given; in toxicity tests it is the harm to the cells. Conditions beyond the fields shown may differ between rows. Blank or dashed fields: not listed here. A number after MIC or MFC names an inhibition level or a share of isolates.

{"smiles": "Clc1ccc(CCNc2ncnc3ccsc23)cc1", "agent": "Mycobacterium bovis BCG", "method": "luminescence", "read-out": "MIC50", "value": ">50 µM"}
{"smiles": "CC[C@H]1OC(=O)[C@H](C)[C@@H](O[C@H]2C[C@@](C)(OC)[C@@H](O)[C@H](C)O2)[C@H](C)[C@@H](O[C@@H]2O[C@H](C)C[C@H](N(C)C)[C@H]2O)[C@](C)(OC)C[C@@H](C)C(=O)[C@H](C)[C@@H](O)[C@]1(C)O", "agent": "Mycobacterium avium complex", "strain or isolate": "N-962 (HIV+)", "read-out": "MIC", "value": "2 µg/mL"}
{"smiles": "FC(F)(F)Oc1ccc(C2CCN(c3ccc(CNc4ncnc5ccsc45)cc3)CC2)cc1", "agent": "Mycobacterium bovis BCG", "method": "luminescence", "read-out": "MIC50", "value": ">20 µM"}
{"smiles": "CC[C@H]1OC(=O)[C@H](C)[C@@H](OC2C[C@@](C)(OC)[C@@H](OC(=O)c3ccccc3)[C@H](C)O2)[C@H](C)[C@@H](O[C@@H]2O[C@H](C)C[C@H](N(C)C)[C@H]2O)C(C)(O)C[C@@H](C)/C(=N\\OCCCOc2ccccc2)[C@H](C)[C@@H](O)[C@]1(C)O", "agent": "Mycobacterium avium complex", "strain or isolate": "20039 (clarithromycin-susceptible)", "read-out": "MIC", "value": "1.56 µg/mL"}
{"smiles": "CCc1nc2ccc(Cl)cn2c1C(=O)NCc1ccc(-c2ccc(OC(C)C)cc2)c(F)c1", "agent": "Mycobacterium avium", "method": "fluorescence", "read-out": "inhibition", "tested at": "0.0094 µM", "value": "85%"}
{"smiles": "FC(F)(F)Oc1ccc(Oc2ccc(Nc3ncnc4cc(Cl)ccc34)cc2)cc1", "agent": "Mycobacterium bovis BCG", "method": "luminescence", "read-out": "MIC50", "value": ">20 µM"}
{"smiles": "CC[C@H]1OC(=O)[C@H](C)[C@@H](O[C@H]2C[C@@](C)(OC)[C@@H](OC(C)=O)[C@H](C)O2)[C@H](C)[C@@H](O[C@@H]2O[C@H](C)C[C@H](N(C)C)[C@H]2O)C(C)(O)C[C@@H](C)/C(=N\\OCCCc2ccccc2)[C@H](C)[C@@H](O)[C@]1(C)O", "agent": "Mycobacterium avium complex", "strain or isolate": "20039 (clarithromycin-susceptible)", "read-out": "MIC", "value": "1.56 µg/mL"}
{"smiles": "Fc1ccc2c(Nc3ccc(N4CCN(c5ccc(C(F)(F)F)cn5)CC4)cc3)ncnc2c1", "agent": "Mycobacterium bovis BCG", "method": "luminescence", "read-out": "MIC50", "value": ">20 µM"}
{"smiles": "CC1(C)N=C(N)N=C(N)N1OCCCOc1cc(Cl)c(Cl)cc1Cl", "agent": "Mycobacterium avium complex", "strain or isolate": "DW2", "read-out": "MIC", "value": "1 µg/mL"}
{"smiles": "CO[C@H]1/C=C/O[C@@]2(C)Oc3c(C)c(O)c4c(=O)c(c5oc6cc(N7CCN(CC(C)C)CC7)cc(=O)c6nc5c4c3=C2O)NC(=O)/C(C)=C\\C=C\\[C@H](C)[C@H](O)[C@@H](C)[C@@H](O)[C@@H](C)[C@H](OC(C)=O)[C@@H]1C", "agent": "Mycobacterium ulcerans", "strain or isolate": "Isolate 94-539", "read-out": "MIC", "value": "0.012 µg/mL"}
{"smiles": "CO[C@H]1/C=C/O[C@@]2(C)Oc3c(C)c(O)c4c(=O)c(c5oc6cc(N7CCN(CC(C)C)CC7)cc(=O)c6nc5c4c3=C2O)NC(=O)/C(C)=C\\C=C\\[C@H](C)[C@H](O)[C@@H](C)[C@@H](O)[C@@H](C)[C@H](OC(C)=O)[C@@H]1C", "agent": "Mycobacterium avium complex", "strain or isolate": "N-978 (HIV+)", "read-out": "MIC", "value": "0.1 µg/mL"}
{"smiles": "OC1(c2ccc(F)cc2)CCN(c2ccc(Nc3ncnc4ccccc34)cc2)CC1", "agent": "Mycobacterium bovis BCG", "method": "luminescence", "read-out": "MIC50", "value": ">50 µM"}
{"smiles": "CCCCCCO/N=C1\\[C@H](C)CC(C)(O)[C@H](O[C@@H]2O[C@H](C)C[C@H](N(C)C)[C@H]2O)[C@@H](C)[C@H](OC2C[C@@](C)(OC)[C@@H](O)[C@H](C)O2)[C@@H](C)C(=O)O[C@H](CC)[C@@](C)(O)[C@H](O)[C@H]1C", "agent": "Mycobacterium avium complex", "strain or isolate": "20092 (clarithromycin-resistant)", "read-out": "MIC", "value": "25 µg/mL"}
{"smiles": "FC(F)(F)c1cccc(Oc2ccc(CNc3ncnc4ccccc34)cn2)c1", "agent": "Mycobacterium bovis BCG", "method": "luminescence", "read-out": "MIC50", "value": ">20 µM"}
{"smiles": "O=c1oc2ccc(Br)cc2c(=S)n1-c1ccccc1", "agent": "Mycobacterium kansasii", "strain or isolate": "6509/96", "conditions": "21 d", "read-out": "MIC", "value": "2 µM"}
{"smiles": "Fc1ccc2c(Nc3ccc(N4CCOCC4)c(F)c3)ncnc2c1", "agent": "Mycobacterium bovis BCG", "method": "luminescence", "read-out": "MIC50", "value": ">50 µM"}
{"smiles": "CCc1nc2cc(Cl)ccn2c1C(=O)NCc1ccc(N2CCN(c3ccc(OC(F)(F)F)cc3)[C@@H](CC)C2)c(F)c1", "agent": "Mycobacterium avium", "method": "fluorescence", "read-out": "inhibition", "tested at": "0.009 µM", "value": "85%"}
{"smiles": "NNC(=O)c1ccncc1", "agent": "Mycobacterium avium complex", "strain or isolate": "N-979 (HIV+)", "read-out": "MIC", "value": "1 µg/mL"}
{"smiles": "FC(F)(F)c1cccc(Oc2ccc(CNc3ncnc4ccsc34)cn2)c1", "agent": "Mycobacterium bovis BCG", "method": "luminescence", "read-out": "MIC50", "value": ">20 µM"}
{"smiles": "CO[C@H]1/C=C/O[C@@]2(C)Oc3c(C)c(O)c4c(O)c(c(/C=N/N5CCN(C6CCCC6)CC5)c(O)c4c3C2=O)NC(=O)/C(C)=C\\C=C\\[C@H](C)[C@H](O)[C@@H](C)[C@@H](O)[C@@H](C)[C@H](OC(C)=O)[C@@H]1C", "agent": "Mycobacterium avium intracellulare", "strain or isolate": "420", "read-out": "MIC", "value": "2 µg/mL"}
{"smiles": "O=c1oc2ccc(Br)cc2c(=S)n1-c1ccc(Cl)cc1", "agent": "Mycobacterium kansasii", "strain or isolate": "My 235/80", "conditions": "21 d", "read-out": "MIC", "value": "8 µM"}
{"smiles": "Cc1ccn2c(C(=O)NCc3ccc(N4CC=C(c5ccc(OC(F)(F)F)cc5)CC4)c(F)c3)c(C)nc2c1.Cl", "agent": "Mycobacterium avium", "method": "fluorescence", "read-out": "inhibition", "tested at": "0.2 µM", "value": "85%"}
{"smiles": "CCCCCCCCCCCCN(C(=O)Nc1ccc(Cl)cc1)[C@@H](CC(=O)OCC)C1O[C@@H]2OC(C)(C)O[C@@H]2[C@H]1Oc1ccccc1", "agent": "Mycobacterium aurum", "read-out": "MIC", "value": ">25 µg/mL"}
{"smiles": "COc1ccc2oc(=O)n(-c3cccc(F)c3)c(=S)c2c1", "agent": "Mycobacterium kansasii", "strain or isolate": "6509/96", "conditions": "14 d", "read-out": "MIC", "value": "32 µM"}
{"smiles": "[2H]c1c(C([2H])([2H])[2H])c([2H])n2c(C(=O)NCc3ccc(Oc4cccc(C(F)(F)F)c4)cc3)c(C)nc2c1[2H]", "agent": "Mycobacterium avium", "method": "fluorescence", "read-out": "inhibition", "tested at": "0.23 µM", "value": "85%"}
{"smiles": "FC(F)(F)Oc1ccc(Oc2ccc(Nc3ncnc4ccsc34)cc2)cc1", "agent": "Mycobacterium bovis BCG", "method": "luminescence", "read-out": "MIC50", "value": ">20 µM"}
{"smiles": "Cc1ccc2oc(=O)n(-c3ccc(Br)cc3)c(=S)c2c1", "agent": "Mycobacterium kansasii", "strain or isolate": "My 235/80", "conditions": "14 d", "read-out": "MIC", "value": "2 µM"}
{"smiles": "CC[C@H]1OC(=O)[C@H](C)[C@@H](OC(=O)Cc2ccc[nH]2)[C@H](C)[C@@H](O[C@@H]2O[C@H](C)C[C@H](N(C)C)[C@H]2O)C(C)(O)C[C@@H](C)/C(=N\\OCCCOc2ccccc2)[C@H](C)[C@@H](O)[C@]1(C)O", "agent": "Mycobacterium avium complex", "strain or isolate": "20092 (clarithromycin-resistant)", "read-out": "MIC", "value": "6.25 µg/mL"}
{"smiles": "Clc1ccc(-c2nc3ccc(Nc4ncnc5ccccc45)cc3o2)cc1", "agent": "Mycobacterium bovis BCG", "method": "luminescence", "read-out": "MIC50", "value": ">50 µM"}
{"smiles": "Cc1nc2ccc(Cl)cn2c1C(=O)NCc1ccc(N2CCN(c3ccc(OC(F)(F)F)cc3)C[C@H]2C)c(F)c1", "agent": "Mycobacterium avium", "method": "fluorescence", "read-out": "inhibition", "tested at": "0.036 µM", "value": "85%"}
{"smiles": "CCCCCCCCCCCCN1C(=O)N(c2ccc(Cl)cc2)C(=O)C[C@H]1C1OC2OC(C)(C)OC2[C@H]1OC", "agent": "Mycobacterium aurum", "read-out": "MIC", "value": ">25 µg/mL"}
{"smiles": "CC[C@H]1OC(=O)[C@H](C)[C@@H](O[C@H]2C[C@@](C)(OC)[C@@H](OC(C)=O)[C@H](C)O2)[C@H](C)[C@@H](O[C@@H]2O[C@H](C)C[C@H](N(C)C)[C@H]2O)C(C)(O)C[C@@H](C)/C(=N\\OCCCCOc2ccccc2)[C@H](C)[C@@H](O)[C@]1(C)O", "agent": "Mycobacterium avium complex", "strain or isolate": "20092 (clarithromycin-resistant)", "read-out": "MIC", "value": "3.13 µg/mL"}
{"smiles": "FC(F)(F)Oc1cccc(CCNc2ncnc3ccoc23)c1", "agent": "Mycobacterium bovis BCG", "method": "luminescence", "read-out": "MIC50", "value": ">20 µM"}
{"smiles": "CCc1nc2ccc(Cl)cn2c1C(=O)NCc1ccc(N2CCN(c3ccc(OCC(F)(F)F)cc3)[C@@H](C)C2)c(F)c1.Cl", "agent": "Mycobacterium avium", "method": "fluorescence", "read-out": "inhibition", "tested at": "0.022 µM", "value": "85%"}
{"smiles": "Cc1ccc2oc(=S)n(-c3ccc(Cl)cc3)c(=S)c2c1", "agent": "Mycobacterium kansasii", "strain or isolate": "My 235/80", "conditions": "14 d", "read-out": "MIC", "value": "4 µM"}
{"smiles": "CCCCN(C(=O)Nc1ccc(F)cc1)[C@@H](CC(=O)OCC)C1O[C@@H]2OC(C)(C)O[C@@H]2[C@H]1Oc1ccccc1", "agent": "Mycobacterium aurum", "read-out": "MIC", "value": ">25 µg/mL"}
{"smiles": "CCc1nc2ccc(Cl)cn2c1C(=O)NCc1ccc(N2C[C@H](C)N(c3ccc(OCC(F)(F)F)nc3)C[C@H]2C)c(F)c1.Cl", "agent": "Mycobacterium avium", "method": "fluorescence", "read-out": "inhibition", "tested at": "0.043 µM", "value": "85%"}
{"smiles": "FC(F)(F)c1ccc(Oc2ccc(Nc3ncnc4nc[nH]c34)cc2)cc1", "agent": "Mycobacterium bovis BCG", "method": "luminescence", "read-out": "MIC50", "value": ">20 µM"}
{"smiles": "CCOC(=O)C[C@@H](C1O[C@@H]2OC(C)(C)O[C@@H]2[C@H]1OC)N(C(=O)NCc1ccccc1)C1CC1", "agent": "Mycobacterium aurum", "read-out": "MIC", "value": ">25 µg/mL"}
{"smiles": "CO[C@H]1/C=C/O[C@@]2(C)Oc3c(C)c(O)c4c(O)c(c5c(c4c3C2=O)NC2(CCN(CC(C)C)CC2)N=5)=NC(=O)/C(C)=C\\C=C\\[C@H](C)[C@H](O)[C@@H](C)[C@@H](O)[C@@H](C)[C@H](OC(C)=O)[C@@H]1C", "agent": "Mycobacterium avium complex", "strain or isolate": "N-979 (HIV+)", "read-out": "MIC", "value": "0.125 µg/mL"}
{"smiles": "c1ccc2c(Nc3ccc(N4CCCCC4)cc3)ncnc2c1", "agent": "Mycobacterium bovis BCG", "method": "luminescence", "read-out": "MIC50", "value": ">50 µM"}
{"smiles": "CCc1nc2ccc(Cl)cn2c1C(=O)NCc1ccc(C2CCN(c3ccc(OCC4CC4)cn3)CC2)c(F)c1.Cl", "agent": "Mycobacterium avium", "method": "fluorescence", "read-out": "inhibition", "tested at": "0.022 µM", "value": "85%"}
{"smiles": "Fc1ccc2c(Nc3ccc(Oc4ccc(C(F)(F)F)cc4)cc3)ncnc2c1", "agent": "Mycobacterium bovis BCG", "method": "luminescence", "read-out": "MIC50", "value": ">20 µM"}
{"smiles": "CC[C@H]1OC(=O)[C@H](C)[C@@H](O[C@H]2C[C@@](C)(OC)[C@@H](OC(C)=O)[C@H](C)O2)[C@H](C)[C@@H](O[C@@H]2O[C@H](C)C[C@H](N(C)C)[C@H]2OC(=O)NNCCCCCc2ccccc2)C(C)(O)C[C@@H](C)/C(=N\\OCCCC2CCCCC2)[C@H](C)[C@@H](O)[C@]1(C)O", "agent": "Mycobacterium avium complex", "strain or isolate": "20096 (clarithromycin-resistant)", "read-out": "MIC", "value": "3.13 µg/mL"}
{"smiles": "Clc1ccc(Oc2ccc(Nc3ncnc4ccccc34)cc2)cc1Cl", "agent": "Mycobacterium bovis BCG", "method": "luminescence", "read-out": "MIC50", "value": ">20 µM"}
{"smiles": "C[C@@H]1CN(c2c(F)c(N)c3c(=O)c(C(=O)O)cn(C4CC4)c3c2F)C[C@H](C)N1", "agent": "Mycobacterium szulgai", "strain or isolate": "NCTC10831", "method": "broth dilution / visual reading", "read-out": "MIC", "value": "0.4 µg/mL"}

For reference, 3 entries again:

| smiles | agent | strain or isolate | method | conditions | read-out | tested at | value |
|---|---|---|---|---|---|---|---|
| O=c1oc2ccc(Br)cc2c(=S)n1-c1ccccc1 | Mycobacterium kansasii | 6509/96 |  | 21 d | MIC |  | 2 µM |
| FC(F)(F)Oc1ccc(C2CCN(c3ccc(CNc4ncnc5ccsc45)cc3)CC2)cc1 | Mycobacterium bovis BCG |  | luminescence |  | MIC50 |  | >20 µM |
| CCc1nc2ccc(Cl)cn2c1C(=O)NCc1ccc(C2CCN(c3ccc(OCC4CC4)cn3)CC2)c(F)c1.Cl | Mycobacterium avium |  | fluorescence |  | inhibition | 0.022 µM | 85% |